Pooled drug test results. Numbers come from NIAID ChemDB, via PubChem.

Common to all: toxicity to cultured cells; cell line: PBMC; endpoint: CC50

Rows are shuffled and stem from different studies. CCn: concentration that lowers growth or viability of the cells by n%.

SMILES,value
Nc1ncnc2c1ncn2CCOCP(=O)(O)O,>100 µM
Cc1cn([C@H]2C[C@H](N=[N+]=[N-])[C@@H](CO)O2)c(=O)[nH]c1=O,>100 µM
COC(=O)[C@H](Cc1ccccc1)NP(=O)(O)OC[C@H]1O[C@@H](n2cc(C)c(=O)[nH]c2=O)C[C@@H]1N=[N+]=[N-],>100 µM
Cc1cn([C@H]2C[C@@](F)(CC(F)(F)P(=O)(O)O)CO2)c(=O)[nH]c1=O,>100 µM
Cc1cn([C@H]2C[C@H](N=[N+]=[N-])[C@@H](CO)O2)c(=O)[nH]c1=O,>100 µM
Nc1ccn([C@H]2CC[C@@H](CO)O2)c(=O)n1,>100 µM
CNCCNCc1ccc2ccc3ccc(CNCCNC)nc3c2n1,>100 µM
COC(=O)[C@H](C)NP(=O)(OC[C@H]1O[C@@H](N2C(=O)NC(=O)C(C)(Br)C2OC)C[C@@H]1N=[N+]=[N-])Oc1ccc(Br)cc1,27.8 µM
Cc1c(-c2cnccn2)ssc1=S,55.6 µM
Nc1ncnc2c1ncn2[C@H]1C[C@@](F)(CC(F)(F)P(=O)(O)O)CO1,95 µM
CCOC(=O)CCc1ccccc1O[P@@](=O)(N[C@@H](C)C(=O)OC(C)C)OC[C@H]1O[C@@H](n2cnc3c(N)nc(N)nc32)[C@](C)(O)[C@@H]1O,>100 µM
Cc1cc(Cl)nc(C)c1C(=O)NCC[C@@H](C)N1CCC(N(C(=O)Nc2cccnc2)c2ccsc2)CC1,>32.4 µM
O=c1[nH]cnc2c1ncn2[C@H]1CC[C@@H](CO)O1,>100 µM
Cc1cc(C)cc(Cn2c(=O)c(C)cn(Cc3ccccc3)c2=O)c1,58 µM
c1cc2ccc3ccc4nc3c2nc1CNCCNCCNC4,>100 µM
CC(C)OC(=O)CCc1ccccc1O[P@@](=O)(N[C@@H](C)C(=O)OC(C)C)OC[C@H]1O[C@@H](n2cnc3c(N)nc(N)nc32)[C@](C)(O)[C@@H]1O,>100 µM
CO[C@H]1O[C@@H](n2ccc(=O)[nH]c2=O)C[C@@H]1N=[N+]=[N-],>100 µM
CCOC(=O)CCc1ccccc1OP(=O)(N[C@@H](C)C(=O)OC(C)C)OC[C@H]1O[C@@H](n2cnc3c(N)nc(N)nc32)[C@](C)(O)[C@@H]1O,>100 µM
Cc1cccc(C)c1Cn1c(=O)ccn(CC#N)c1=O,>464 µM
CCOC(=O)[C@H](C)NP(=O)(OC[C@H]1O[C@@H](n2cnc3c(N)nc(N)nc32)[C@](C)(O)[C@@H]1O)Oc1ccccc1CCC(=O)OC(C)C,>100 µM
Nc1ccn([C@H]2C=C[C@@H](CO)O2)c(=O)n1,65 µM
CCOP(=O)(OCC)C(F)(F)C[C@@]1(F)CO[C@@H](n2cnc3c(Cl)nc(N)nc32)C1,>100 µM
COC(=O)[C@@H](Cc1ccccc1)NC(=O)OC[C@H]1O[C@@H](n2cc(C)c(=O)[nH]c2=O)C[C@@H]1N=[N+]=[N-],>100 µM
CC(C)(C)NC(=O)[C@@H]1CSCN1C(=O)[C@@H](O)[C@H](Cc1ccccc1)NC(=O)[C@H](CC(N)=O)NC(=O)COc1cccc2ccccc12,77 µM
O=C(O)[C@H]1O[C@@H](Oc2cc3oc(-c4ccccc4)cc(=O)c3c(O)c2O)[C@H](O)[C@@H](O)[C@@H]1O,250 µM
CCOC(=O)[C@H](C)N[P@@](=O)(OC[C@H]1O[C@@H](n2cnc3c(N)nc(N)nc32)[C@](C)(O)[C@@H]1O)Oc1ccccc1CCC(=O)OC(C)C,>100 µM
COC(=O)[C@@H](Cc1c[nH]c2ccccc12)NC(=O)OC[C@H]1O[C@@H](n2cc(C)c(=O)[nH]c2=O)C[C@@H]1N=[N+]=[N-],>100 µM
CNc1ncnc2c1ncn2[C@H]1CC[C@@H](CO)O1,>100 µM
N#CCn1ccc(=O)n(Cc2cccc(C#N)c2)c1=O,>469 µM
CC(C)(C)NC(=O)[C@H]1N(C(=O)[C@@H](O)[C@H](Cc2ccccc2)NC(=O)[C@H](CC(N)=O)NC(=O)COc2cccc3ccccc23)CSC1(C)C,32 µM
O=c1ccn(Cc2c(F)cccc2F)c(=O)[nH]1,197 µM
CC(=O)SCCOP(=O)(OCCSC(C)=O)OC[C@@H]1CC[C@H](n2cnc3c(N)ncnc32)O1,1.1 µM
Nc1ncnc2c1ncn2[C@@H]1C=C[C@H](CO)O1,59 µM
CCOC(=O)CCc1ccccc1O[P@](=O)(N[C@@H](C)C(=O)OCC)OC[C@H]1O[C@@H](n2cnc3c(N)nc(N)nc32)[C@](C)(O)[C@@H]1O,>100 µM
O=c1[nH]cnc2c1ncn2[C@H]1C=C[C@@H](CO)O1,>100 µM
CNC(=O)[C@H](Cc1ccccc1)NC(=O)OC[C@H]1O[C@@H](n2cc(C)c(=O)[nH]c2=O)C[C@@H]1N=[N+]=[N-],>100 µM